Measurements reported in PubChem BioAssay AID504761 (Drosophila RNAi Screening Center, 2011)
Aim: 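Insect host genes that dengue virus relies on to spread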 (primary screen). Cells: D.Mel-2 cells from Drosophila. Reagents: long dsRNA against Drosophila genes. Conditions: infection with dengue virus type 2; dose and infection time not stated. Detection: 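Per well on two replicate plates, imaging gave the percent of cells positive for viral envelope protein, ranked by infection, and a nuclear count of cells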. Scale: infection score: higher = more virus-infected cells; cell count: higher = more cells in the well. Rule for the call: 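Low infection ranks in the two replicates (chance level up to 0.065) followed by a retest with a 1.5-fold or larger significant decrease, p below 0.05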. Meaning of the calls: active = confirmed: knock-down lowers infection; inactive = not picked or not confirmed.
In all, the deposit lists about 22,000 reagents; this is an unselected part of those with a known target gene and a result. Of all reagents, 116 (0.52%) got an active call. 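Calls depend on retest data that are not deposited; infection was ranked per plate without normalising between plates; the unit of the infection score is not given.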 Raw values are not corrected between plates. Reagents against one gene are numbered here. Names joined by + are all predicted targets of the reagent. No sequences are given here. Not given: the amount of reagent, the time to read-out.

no.	Gene	reagent no.	infection score, replicate 1	infection score, replicate 2	cell count, replicate 1	cell count, replicate 2	call
1	CG11191 (GeneID 35765)	1	1.09	2.22	6631	6655	inactive
2	CG11191 (GeneID 35765)	2	27.6	15.4	5820	5419	inactive
3	CG14238 (GeneID 43195)	1	2.58	0.72	6287	557	inactive
4	CG14238 (GeneID 43195)	2	9.34	19.3	2376	5699	inactive
5	dysc (GeneID 39533)	1	5.51	3.38	6747	6736	inactive
6	dysc (GeneID 39533)	2	2.09	2.75	6280	6650	inactive
7	dysc (GeneID 39533)	3	4.43	20	6273	6468	inactive
8	dysc (GeneID 39533)	4	1.03	1.79	5635	6439	inactive
9	dysc (GeneID 39533)	5	16	2.76	4578	5659	inactive
10	Pig1 (GeneID 31303)	1	15.7	0.92	6508	6527	inactive
11	CG31404 (GeneID 318714)	1	1.91	1.79	6481	6301	inactive
12	CG31404 (GeneID 318714)	2	12.8	14.4	4300	4839	inactive
13	CG11598 (GeneID 41554)	1	5.49	3.95	6306	6449	inactive
14	tex (GeneID 40983)	1	12.5	9.23	6275	6567	inactive
15	CG31560 (GeneID 40772)	1	13.3	1.14	5924	7199	inactive
16	TH1 (GeneID 32607)	1	13.7	2.53	5986	6294	inactive
17	Aldh7A1 (GeneID 40097)	1	3.55	8.37	6058	7121	inactive
18	Mps1 (GeneID 42126)	1	17.9	19.1	3603	4985	inactive
19	CG14333 (retired record) (GeneID 42088)	1	25.8	23.9	6871	3228	inactive
20	CG14333 (retired record) (GeneID 42088)	2	5.31	9.54	6649	6686	inactive
21	CG14333 (retired record) (GeneID 42088)	3	7.57	0.57	5456	5951	inactive
22	CG14333 (retired record) (GeneID 42088)	4	11.7	28.2	6302	5309	inactive
23	CG33271 (GeneID 2768972)	1	2.23	7.01	5392	6208	inactive
24	CG13168 (GeneID 36327)	1	14.7	6.08	5755	6203	inactive
25	CG18249 (GeneID 40964)	1	7.26	8.03	6900	6870	inactive
26	CG16894 (GeneID 37280)	1	7.93	2.58	6872	7091	inactive
27	CG16894 (GeneID 37280)	2	15.4	11.4	1103	6829	inactive
28	CG2224 (GeneID 43617)	1	4.11	9.06	6156	6117	inactive
29	CG2224 (GeneID 43617)	2	4.23	1.45	6128	5779	inactive
30	CG7332 (GeneID 32885)	1	4.36	12.3	7069	6737	inactive
31	CG7332 (GeneID 32885)	2	21.4		3741	401	inactive
32	CG42327 (GeneID 41401)	1	6.61	8.58	6308	6164	inactive
33	CG42327 (GeneID 41401)	2	1.58	15.5	6439	6099	inactive
34	CG42327 (GeneID 41401)	3	1.27	11.4	6923	6388	inactive
35	CG42327 (GeneID 41401)	4	7.1	6.25	6580	6672	inactive
36	CG42327 (GeneID 41401)	5	21.3	11.7	4997	6082	inactive
37	beta-Spec (GeneID 32746)	1	10.8	10.6	6631	6465	inactive
38	Vps24 (GeneID 40542)	1	13	7.17	2208	6106	inactive
39	Vps24 (GeneID 40542)	2	1.19		503	443	inactive
40	Dup99B (GeneID 2768691)	1	1.05	2.76	5984	6459	inactive
41	Dup99B (GeneID 2768691)	2	21.6	30.5	5205	5149	inactive
42	List (GeneID 37157)	1	1.78	0.55	6131	6604	inactive
43	nxf2 (GeneID 39843)	1	6.59	7.29	6886	6944	inactive
44	nxf2 (GeneID 39843)	2	1.13	9.18	6908	5762	inactive
45	Elba3 (GeneID 33670)	1	14.7	1.6	3675	374	inactive
46	Rop (GeneID 38493)	1	5.3	4.9	5694	5610	inactive
47	Rop (GeneID 38493)	2	4.63	4.95	5766	5500	inactive
48	nes (GeneID 40093)	1	3.01	9.57	5756	5537	inactive
49	CG7215 + Prx5	1	1.2	7.54	6003	6496	inactive
50	CG7215 + Prx5	2	7.61	32.2	1865	5147	inactive
51	SmF (GeneID 36314)	1	35.9	11.7	5334	1761	inactive
52	SmF (GeneID 36314)	2	9.21	6.34	5917	5271	inactive
53	Qsox4 (GeneID 318720)	1	9.54	12.9	6121	1072	inactive
54	CG18190 (GeneID 37179)	1	2.7	4.18	6190	6050	inactive
55	CG18190 (GeneID 37179)	2	14	24.4	5731	5606	inactive
56	CG42789 (GeneID 10178793)	1	8.9	5.14	6700	6150	inactive
57	Cpr47Eg (GeneID 36196)	1	27.1	13.4	6318	6169	inactive
58	Mtmr6 (GeneID 37707)	1	5.72	4.56	6432	6167	inactive
59	Mtmr6 (GeneID 37707)	2	1.62	4.69	5863	5820	inactive

Ordered by “infection score, replicate 2” (highest first): 5 of the entries above
Gene	reagent no.	infection score, replicate 1	infection score, replicate 2	cell count, replicate 1	cell count, replicate 2	call
CG14333 (retired record) (GeneID 42088)	4	11.7	28.2	6302	5309	inactive
CG14333 (retired record) (GeneID 42088)	1	25.8	23.9	6871	3228	inactive
CG14333 (retired record) (GeneID 42088)	2	5.31	9.54	6649	6686	inactive
CG33271 (GeneID 2768972)	1	2.23	7.01	5392	6208	inactive
CG14333 (retired record) (GeneID 42088)	3	7.57	0.57	5456	5951	inactive
